# Biological target: HIV-1 Env (JR-FL) (HIV-1 JR-FL) (UniProt P20871)
# Assay: cell-based or functional assay
substance,measurement,value
CD4 CAR (from UniProt P01730 26-208; P10747 114-220; P20963 52-163) (receptor),"IFN-γ secretion at the lowest Env expression level (HeLa-Tet-Off, 20 ng/ml Dox)",30%

# — patent US20170267739A1
